{
  "source": "ChEMBL document CHEMBL1268855",
  "about": "(J Nat Prod, 2010)",
  "key": {"Neuraminidase [1]": {"biological_target": "T1, Neuraminidase (Influenza A virus, UniProt B4URF0)", "experiment": "Inhibition of Influenza A virus (A/chicken/Korea/01310/2001 (H9N2)) neuraminidase after 30 mins by spectrofluorimetric analysis"}, "Neuraminidase [2]": {"biological_target": "T1, Neuraminidase", "experiment": "Inhibition of Influenza A virus (A/Sw/Kor/CAH1/04 (H1N1) KCTC 11165BP neuraminidase after 30 mins by spectrofluorimetric analysis"}},
  "data": [
    {"compound": "COc1c(C)c(O)c(C)c(O)c1C(=O)/C=C/c1ccccc1", "values": [
      {"measurement": "IC50", "setting": "Neuraminidase [1]", "value": 21.7, "unit": "µM"},
      {"measurement": "IC50", "setting": "Neuraminidase [2]", "value": 32.5, "unit": "µM"}
    ]},
    {"compound": "COc1c(C)c(O)c(C)c(O)c1C(=O)/C=C/c1ccccc1O", "values": [
      {"measurement": "IC50", "setting": "Neuraminidase [1]", "value": 23.1, "unit": "µM"},
      {"measurement": "IC50", "setting": "Neuraminidase [2]", "value": 28.1, "unit": "µM"}
    ]},
    {"compound": "COc1c(C)c(O)c(C)c(O)c1C(=O)/C=C/c1ccc(O)cc1", "values": [
      {"measurement": "IC50", "setting": "Neuraminidase [1]", "value": 18.6, "unit": "µM"},
      {"measurement": "IC50", "setting": "Neuraminidase [2]", "value": 20.4, "unit": "µM"}
    ]},
    {"compound": "COc1cc(O)c(C)c(O)c1C(=O)/C=C/c1ccccc1", "values": [
      {"measurement": "IC50", "setting": "Neuraminidase [1]", "value": 66.5, "unit": "µM"},
      {"measurement": "IC50", "setting": "Neuraminidase [2]", "value": 85.7, "unit": "µM"}
    ]}
  ]
}
